The record followed here is patent US20140323691A1 (UAB RESEARCH FOUNDATION, published 2014).

The experiment concerns the target T1, BxpB mutant 10M+E125 (Bacillus anthracis).
T1 chain: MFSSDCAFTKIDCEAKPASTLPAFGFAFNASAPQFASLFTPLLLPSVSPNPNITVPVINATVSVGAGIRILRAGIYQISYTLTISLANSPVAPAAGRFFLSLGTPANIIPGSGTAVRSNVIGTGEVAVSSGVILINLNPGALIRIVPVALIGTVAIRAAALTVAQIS

AFDPNLVGPTLPPIPPFTL (other) [BclA NTD-enhanced green fluorescence protein (eGFP) fusion protein]: the binding result is “binds”.
